Measured values: PMC2920228, “Investigation of the chaperone function of the small heat shock protein — AgsA” (2010)

Experiments:
[1] = target: ΔN11, N-terminal 11 AA truncated AgsA, His-tagged (Salmonella enterica serovar Typhimurium); assay: SEC; data not shown; run at 50°C
[2] = target: ΔN11, N-terminal 11 AA truncated AgsA, His-tagged (Salmonella enterica serovar Typhimurium); assay: SEC; data not shown; run at 25°C
[3] = target: ΔN11, N-terminal 11 AA truncated AgsA, His-tagged (Salmonella enterica serovar Typhimurium); assay: SEC; data not shown; run at 42°C

Substance “ΔN11, N-terminal 11 AA truncated AgsA, His-tagged (domain or fragment)” has a stoichiometry N [1] of 2 subunits, a stoichiometry N [2] of 21 subunits and a stoichiometry N [3] of 6 subunits.
